# Kdimer by position in the HIV-1 leader RNA

Values reported by Ye et al. 2022 (doi:10.1038/s41594-022-00746-2).

The 5' region of HIV-1 NL4-3 RNA (positions 1-437):
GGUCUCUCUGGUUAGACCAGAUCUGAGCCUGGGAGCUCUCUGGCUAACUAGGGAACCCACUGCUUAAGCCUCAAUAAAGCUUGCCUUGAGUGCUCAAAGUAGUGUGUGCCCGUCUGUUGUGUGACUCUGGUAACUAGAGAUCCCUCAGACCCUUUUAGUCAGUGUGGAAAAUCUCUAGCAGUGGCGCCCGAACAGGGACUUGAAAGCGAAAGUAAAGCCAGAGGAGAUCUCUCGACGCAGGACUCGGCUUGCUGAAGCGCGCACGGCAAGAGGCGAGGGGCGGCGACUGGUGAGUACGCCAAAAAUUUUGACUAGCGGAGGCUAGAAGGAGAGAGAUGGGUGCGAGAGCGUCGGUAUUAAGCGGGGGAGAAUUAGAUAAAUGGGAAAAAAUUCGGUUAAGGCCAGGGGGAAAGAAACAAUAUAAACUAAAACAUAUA

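Randomly mutated transcripts starting with one, two or three G (1G, 2G, 3G), capped or uncapped, were folded for 30 min at 37 °C. High salt was 300 mM KCl and 5 mM MgCl2, low salt 40 mM KCl and 0.1 mM MgCl2; monomer and dimer were parted on a native gel. Kdimer compares mutation frequencies in monomer and dimer, corrected for sequencing errors.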

Values are log2 Kdimer, the median over the changes at each position: higher means that changes there hinder dimer formation, below 0 that they favour it. Sample: 1G uncapped low-salt. One numbering serves 1G, 2G and 3G. A position is written with its base.

* A21 (domain TAR) = -0.10
* U22 (domain TAR) = 0.22
* C23 (domain TAR) = -0.07
* U24 (domain TAR) = -0.01
* G25 (domain TAR) = -0.41
* A26 (domain TAR) = 0.09
* G27 (domain TAR) = -0.91
* C28 (domain TAR) = -0.62
* C29 (domain TAR) = -0.11
* U30 (domain TAR) = -0.47
* G31 (domain TAR) = -0.27
* G32 (domain TAR) = -0.21
* G33 (domain TAR) = -0.30
* A34 (domain TAR) = -0.30
* G35 (domain TAR) = -0.58
* C36 (domain TAR) = -0.19
* U37 (domain TAR) = -0.20
* C38 (domain TAR) = -0.11
* U39 (domain TAR) = -0.03
* C40 (domain TAR) = -0.28
* U41 (domain TAR) = -0.49
* G42 (domain TAR) = -0.08
* G43 (domain TAR) = 0.00
* C44 (domain TAR) = -0.09
* U45 (domain TAR) = -0.07
* A46 (domain TAR) = -0.39
* A47 (domain TAR) = -0.31
* C48 (domain TAR) = -0.46
* U49 (domain TAR) = 0.05
* A50 (domain TAR) = -0.15
* G51 (domain TAR) = 0.00
* G52 (domain TAR) = 0.06
* G53 (domain TAR) = 0.00
* A54 (domain TAR) = -0.41
* A55 (domain TAR) = 0.17
* C56 (domain TAR) = -0.06
* C57 (domain TAR) = -0.09
* C58 (domain PolyA) = 0.35
* A59 (domain PolyA) = 0.26
* C60 (domain PolyA) = 0.24
* U61 (domain PolyA) = 0.32
* G62 (domain PolyA) = 0.48
* C63 (domain PolyA) = 0.00
* U64 (domain PolyA) = 0.15
* U65 (domain PolyA) = 0.18
* A66 (domain PolyA) = -0.12
* A67 (domain PolyA) = 0.03
* G68 (domain PolyA) = 0.18
* C69 (domain PolyA) = 0.20
* C70 (domain PolyA) = 0.08
* U71 (domain PolyA) = 0.04
* C72 (domain PolyA) = 0.02
* A73 (domain PolyA) = 0.18
* A74 (domain PolyA) = 0.05
* U75 (domain PolyA) = 0.05
* A76 (domain PolyA) = -0.02
* A77 (domain PolyA) = 0.03
* A78 (domain PolyA) = -0.01
* G79 (domain PolyA) = 0.30
* C80 (domain PolyA) = 0.07
* U81 (domain PolyA) = 0.19
* U82 (domain PolyA) = -0.06
* G83 (domain PolyA) = -0.25
* C84 (domain PolyA) = -0.25
* C85 (domain PolyA) = -0.18
* U86 (domain PolyA) = 0.16
* U87 (domain PolyA) = 0.39
* G88 (domain PolyA) = -0.14

The opening 6 entries, copied out:

With A21 (domain TAR) the assay gave -0.10.
With U22 (domain TAR) the assay gave 0.22.
With C23 (domain TAR) the assay gave -0.07.
With U24 (domain TAR) the assay gave -0.01.
With G25 (domain TAR) the assay gave -0.41.
With A26 (domain TAR) the assay gave 0.09.